PubChem BioAssay AID624099 – ICCB-Longwood, 2012

Aim: 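Host factors E2 relies on to silence an HPV18 LCR reporter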 (primary screen)
Cells: human C33A cervical carcinoma cells (HPV-negative) stably expressing BPV1 E2 and an HPV18 LCR luciferase reporter
Knock-down reagent: siRNA pool against human genes, 40 nM
Timing: 72 h
Measured: 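Per-well luciferase luminescence, z-scored on each plate against the plate mean and SD with control wells left out, then averaged across three replicate plates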
Reading the numbers: mean z-score and z-score: higher = stronger reporter signal, weaker E2 silencing
Hit rule: 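Mean z ≥ 2 together with z ≥ 2 in two or more of the three replicates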
The whole screen tested about 21,000 reagents; below is an unselected part. Over the whole deposit, 497 (2.4%) were called active. 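Higher z means weaker E2 silencing; only reporter increases were scored, and knock-downs that hurt cell survival may mask genuine repressor factors.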 A number with no mark means an inactive call.

Gene | mean z-score | z-score, replicate A | z-score, replicate B | z-score, replicate C
LOC285711 (retired record) | 1.08 | 1.05 | 0.8 | 1.39
CALU | 0.08 | 0.14 | -0.09 | 0.2
ANP32D | -0.71 | -0.62 | -0.96 | -0.56
KLHL18 | -0.93 | -1.48 | -0.63 | -0.68
H4C2 | -0.6 | -0.49 | -0.58 | -0.75
H2AC4 | -1.21 | -1.31 | -1.22 | -1.1
VDAC1 | -0.2 | -0.33 | -0.09 | -0.17

4 entries from above, ordered by “z-score, replicate A”, descending.
Gene | mean z-score | z-score, replicate A | z-score, replicate B | z-score, replicate C
H4C2 | -0.6 | -0.49 | -0.58 | -0.75
ANP32D | -0.71 | -0.62 | -0.96 | -0.56
H2AC4 | -1.21 | -1.31 | -1.22 | -1.1
KLHL18 | -0.93 | -1.48 | -0.63 | -0.68

Further results:
Gene | mean z-score | z-score, replicate A | z-score, replicate B | z-score, replicate C
LOC401112 (retired record) | 1.45 | 1.34 | 1.18 | 1.83
SLC25A39 | -0.34 | -0.25 | -0.35 | -0.41
ZNF492 | -1.42 | -1.79 | -1.55 | -0.91
SYN2 | 0.73 | 0.76 | 0.7 | 0.73
CTAGE6 | -0.75 | -0.81 | -0.66 | -0.79
HSDL1 | -0.79 | -0.83 | -0.67 | -0.88
CSNK1G3 | 0.45 | 0.53 | 0.44 | 0.39
COQ3 | 1.63 | 1.79 | 1.73 | 1.37
CCDC148 | 0.87 | 0.84 | 1.02 | 0.76
LOC389685 (retired record) | 1.15 | 1.06 | 1.22 | 1.19
NAP1L3 | -0.06 | -0.26 | 0.02 | 0.05
VASN | -0.23 | -0.33 | -0.26 | -0.09
OR51B4 | -0.13 | -0.22 | -0.36 | 0.19
KHDC1 | -0.18 | 0 | -0.18 | -0.35
SHISA2 | 0.55 | 0.34 | 0.96 | 0.37
EML5 | -0.39 | -0.08 | -0.7 | -0.41
